{"source": "patent US20160009772A1", "about": "(priority 2012, published 2016)", "key": {"[1]": {"test": "peptide made by a vendor (Fmoc solid-phase peptide synthesis; Fmoc-Linker-Rink amide resin; HBTU or DIC, HOBT added)", "conditions": "whole synthesis, scale 0.15 mmole"}, "[2]": {"test": "peptide made by a vendor (Fmoc solid-phase peptide synthesis; Rink Amide MBHA resin; Fmoc-Linker-Rink amide resin; HBTU or DIC, HOBT added)", "conditions": "whole synthesis, analytical HPLC, scale of the general procedure 0.4 mm"}}, "data": [{"substance": "Ac-KDLMVQWFKDGGPSSGAPPPS-NH2", "values": [{"measurement": "isolated yield", "setting": "[1]", "result": 20, "unit": "%"}, {"measurement": "final HPLC purity", "setting": "[2]", "result": ">95", "unit": "%"}]}]}
